## Library screen at single concentrations

The values are deposited in ChEMBL (CHEMBL3988442, “University of Dundee, Small-Polar-MMV Screening Library” (2021)).

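Phenotypic screen: M. tuberculosis growth, cholesterol and DPPC medium, 4 days; the read-out is not stated. Tested at 500 µM. Higher reads as more growth inhibition (inferred: compounds with an IC50 in retests scored well above the rest). About 18,000 compounds were tested under these conditions; 5% (about 900) showed 50% or more at least once.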

Values are the deposited “Percent Effect”, in %. How 0% and 100% were set is not recorded. Most values in the screen are low, and negative values occur. The entries come from a sample that favours strong results.

| SMILES | Percent Effect |
|---|---|
| `Cc1cccc(N2CCC(N3CCOC(C)C3)CC2)n1` (stereo not drawn) | 17.63% |
| `CN1CCCN(C(=O)COc2ccc(F)cc2Cl)CC1` | 10.46% |
| `CCOc1cccc(CCN)n1` | 101.2% |
| `CNC(=O)Nc1ccc(OC)c(OCCOC)c1` | 57.14% |
| `CCOc1ccccc1N(C)C(=O)c1cnn(CC)c1` | 14.9% |
| `NC(=O)NC(=O)CN1CCSCC1` | 2.702% |
| `CCCn1cc(CNc2ccc(F)cn2)cn1` | 76.13% |
| `COCCNC(=O)c1ccc2c(c1)OCCCO2` | 19.26% |
| `CCN(CCn1cccn1)C(=O)c1cc(C(C)C)no1` | 53.35% |
| `Cc1noc(CSc2ccc(C(=O)N3CCC3)cc2)n1` | 55.96% |
| `C[C@H](NC(=O)c1cc(C(F)(F)F)ccc1F)C(N)=O` | -11.5% |
| `CCNC(=O)CSc1nccn1C1CC1` | -22.34% |
| `O=C(c1cccc(=O)[nH]1)N1CC(N2CCCCC2)C1` | -21.8% |
| `CC1CN=C(N2CCN(c3ccc(C#N)cn3)CC2)S1` (stereo not drawn) | -5.946% |
| `Cn1nccc1CNC1CC1` | -0.8033% |
| `Cc1nc(CN2CCC[C@H]2C(=O)N2CCOCC2)cs1` | -14.69% |
| `NC(=O)c1ccc(=O)n(Cc2ccc(Br)s2)n1` | 18.08% |
| `CCc1cc(C(=O)NC(CC)[C@H]2C[C@@H](O)C2)[nH]n1` (stereo partly drawn) | 3.295% |
| `CNC(CO)c1cccc(Cl)c1Cl` (stereo not drawn) | 24.26% |
| `NC1CCN(c2ncc(C(F)(F)F)cc2Cl)C1` (stereo not drawn) | 89.21% |
| `CC(C)Cc1nnc(CN)o1` | -0.02899% |
| `Cc1nonc1NC(=O)CSc1c[nH]nn1` | 16.72% |
| `CN(C(=O)c1ccccc1)S(=O)(=O)c1ccccc1` | 81.48% |
| `NC(=O)CSc1nnc(-c2ccccc2)n1CCCO` | 5.663% |
| `COc1cc(-c2nc(CN)no2)cc(OC)c1OC` | 7.73% |
| `CC1(C(=O)NCC(CO)Cc2cccs2)CCNCC1` (stereo not drawn) | 0.8887% |
| `CSCC(=O)N1CCN(C)Cc2ccccc21` | 5.516% |
| `Cc1ccc(CN(C)Cc2nccn2C)nc1` | 0.008237% |
| `CC(OC(=O)c1ccccc1NCCO)C(N)=O` (stereo not drawn) | 11.93% |
| `c1ccc(-c2noc(CN3CCCC3)n2)cc1` | 17.46% |
| `CSc1ccc(C(CN)N(C)C)cc1` (stereo not drawn) | 73.55% |
| `CCN(CCS(=O)(=O)c1ccccc1)CC(C)C#N` (stereo not drawn) | 3.351% |
| `COCc1nn(CC(=O)N(C)C2CCCCC2)c(=O)o1` | 33.12% |
| `COC(=O)NC(C)C(=O)NCCCc1nc(C)cs1` (stereo not drawn) | -12.73% |
| `CN1C(=O)C(N)CCc2ccccc21` (stereo not drawn) | 9.618% |
| `NCCCOCC1CCOC1` (stereo not drawn) | -16.27% |
| `COCc1nc(-c2cnn(C)c2)cs1` | 13.14% |
| `Cc1cc(=O)c(C(=O)N2CCN(C)CC2C(C)C)c[nH]1` (stereo not drawn) | 9.531% |
| `NC1CCN(Cc2ccccc2)C1=O` (stereo not drawn) | -34.45% |
| `CCOc1cccc(CS(=O)(=O)Cc2ccnn2C)n1` | -10.94% |
| `CN1CCCN(C(=O)c2cc(C3CC3)on2)CC1` | 12.9% |
| `CN(Cc1ccco1)C(=O)c1cccc(C#N)c1` | 53.19% |
| `CCc1noc(C)c1C(=O)N1CCCN(C)CC1` | 4.531% |
| `O=C(CC1CCS(=O)(=O)C1)NCCc1ccc(F)cc1` (stereo not drawn) | 0.956% |
| `CC(C)(CN)C1(O)CCOCC1` | 13.15% |
| `CC1CS(=O)(=O)CCN1Cc1ccc(F)c(C#N)c1` (stereo not drawn) | -17.01% |
| `CCOc1ccccc1NC(=O)N1CCN(C)CC1` | 20.92% |
| `O=C1CCc2cc(NC3CCS(=O)(=O)CC3)ccc2N1` | -5.914% |
| `COCc1ccc(C(=O)NCc2cccc(F)c2)o1` | 59.12% |
| `Cc1occc1C(=O)NCC1(N(C)C)CCOCC1` | -13.85% |
| `O=c1[nH]cnc2cccc(O)c12` | 50.78% |
| `CCOc1nnc(CN2CCC(C(N)=O)CC2)s1` | 23.64% |
| `c1ccc2c(N3CCNCC3)cncc2c1` | 77.68% |
| `OCCc1cn2c(n1)CCCC2` | -5.716% |
| `CSC1(CNC(=O)NCc2ccco2)CCOCC1` | 24.13% |
| `N[C@H]1CN(S(=O)(=O)c2cccc(F)c2)C[C@@H]1C1CC1` | 10.69% |
| `COc1ccc(NC(=O)[C@H]2CC2(C)C)cc1CO` | 12.75% |
| `N#Cc1cccnc1N1CCOC(c2nccs2)C1` (stereo not drawn) | 36.53% |
| `CNCC(=O)NC1CCN(Cc2ccc(Br)cc2)CC1` | 52.31% |
| `Cc1ccc(NCc2cc[nH]n2)cc1S(C)(=O)=O` | -10.26% |
| `O=C1NC(=O)c2cc(F)c(F)cc21` | -1.802% |
| `Cc1csc(-n2cccc2)n1` | 10.53% |
| `CCC(N)C(=O)N1CCN(c2ccncc2Cl)CC1` (stereo not drawn) | -7.738% |
| `CN(C)C(=O)CSc1nnc(C(F)(F)F)s1` | 64.57% |
| `Cn1cc(NC(=O)C(C)(C)C)cc(Br)c1=O` | -9.415% |
| `CC(=O)c1cccc(-n2nnnc2SCC#N)c1` | -5.624% |
| `O=C(NCC1CC1)c1cccc2nn[nH]c12` | 81.76% |
| `COC(=O)CC1C(=O)NCCN1Cc1ccc(Br)o1` (stereo not drawn) | -22.7% |
| `O[C@@H]1CNC[C@H](O)C1` | 91.26% |
| `CCC1CCCCN1CCC(=O)NC(N)=O` (stereo not drawn) | -8.569% |
| `CC(=O)N1CCC(N)c2ccc(F)cc2C1` (stereo not drawn) | -2.519% |

The first 5 entries again:

SMILES	Percent Effect
Cc1cccc(N2CCC(N3CCOC(C)C3)CC2)n1 (stereo not drawn)	17.63%
CN1CCCN(C(=O)COc2ccc(F)cc2Cl)CC1	10.46%
CCOc1cccc(CCN)n1	101.2%
CNC(=O)Nc1ccc(OC)c(OCCOC)c1	57.14%
CCOc1ccccc1N(C)C(=O)c1cnn(CC)c1	14.9%